# PubChem BioAssay AID1259414 – Drosophila RNAi Screening Center – 2018
# Purpose: 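Fly genes that alter Wolbachia amount inside host cells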 (primary screen)
# System: Drosophila JW18 cells infected with Wolbachia
# Reagent: long dsRNA against Drosophila genes, 0.25 µg dsRNA per well of a 384-well plate
# Time to read-out: 5 days
# Conditions: cells persistently infected with Wolbachia before knock-down; no added drug
# Measured: 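Imaged fluorescence in situ signal for Wolbachia 23S rRNA per DAPI-counted host cell, given as a robust z-score within each plate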
# Reading the numbers: Wolbachia per cell robust z: higher = more Wolbachia per host cell than the plate typical
# Active means: 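Active if absolute robust z reaches 1.5 in two or more of three replicates, leaving out multi- or no-target dsRNAs, genes unexpressed in JW18 and A1 wells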
# The screen tested about 24,000 reagents; below is an unselected part of those with a known target gene and a result. In the full data, about 1,210 (5%) got an active call. 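Inactive calls also include excluded dsRNAs with several or no targets, genes unexpressed in JW18, and well A1, regardless of score.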 Unmarked entries are inactive. Names joined by + are all predicted targets of the reagent.
target gene,amplicon,"Wolbachia per cell robust z, rep 1","Wolbachia per cell robust z, rep 2","Wolbachia per cell robust z, rep 3"
S6kII,DRSC20645,0.65,0.189,0.37
CG14445,DRSC17938,-0.546,0.53,-0.3
CG14445,DRSC24159,-0.607,-0.0475,-1.68
Sec23,DRSC12387,0.175,-0.423,-0.22
CG5674,DRSC23176,-2.24,0.914,1.77
CG5674,DRSC28320,-0.435,0.839,-0.258
Gr93b,DRSC22063,-0.469,0.354,0.111
dj,DRSC12625,0.542,-0.29,-0.991
dj,DRSC25525,-0.242,-0.849,1.23
cDIP,DRSC14267,-2.61,0.229,-1.37
vib,DRSC17094,0.686,0.562,-0.372
esn,DRSC05039,-1.84,-1.96,-1.88
esn,DRSC06181,-0.534,-1.43,0.352
esn,DRSC07612,0.489,-1.25,-2.38
esn,DRSC27647,0.73,0.0471,-0.448
CG15605,DRSC06558,0.598,1.02,0.899
CG15546,DRSC15084,0.904,-1.32,0.567
CG15546,DRSC22831,1.05,-1.32,-0.903
CG15546,DRSC28899,-0.33,-0.642,-0.154
CG13054,DRSC09935,-0.591,1.26,0.53
CG13054,DRSC29594,0.00714,0.545,-6.72
CG13043,DRSC09924,0.758,-0.466,-3.01
CG13043,DRSC25440,0.454,1.66,1.77
CG13319,DRSC06356,0.472,0.134,0.828
CG43675 + drn,DRSC15147,1.75,0.731,1.49
CG17930,DRSC15292,-1.28,-2.19,-0.438
CG17930,DRSC28230,0.342,0.947,0.632
ranshi,DRSC16564,0.755,-2.41,0.673
ranshi,DRSC29605,-2.11 (active),0.187,-2.21
Ugt302K1,DRSC16086,-5.35,1.22,0.873
Tm1,DRSC13082,-0.0844,-0.602,0.125
Tm1,DRSC13083,0.123,-2.1,0.933
Tm1,DRSC16886,-0.0132,-2.29,0.22
Tm1,DRSC25249,1.42,0.386,0.493
Tm1,DRSC39135,-0.291,-0.608,-5.71
Trmt6,DRSC03272,-1.1,-9.04,-0.629
CG33271,DRSC10583,-0.136,0.523,1.8
Fbp2,DRSC03327,0.607,0.83,-0.76
Fbp2,DRSC29036,0.831,0.602,-0.216
CG15715,DRSC10216,-0.299,-2.08,-0.415
CG15715,DRSC25332,-2.42 (active),-1.86,0.742
CR40190,DRSC40560,1.28,-0.816,0.345
sloth1 + sloth2,DRSC17922,-3.28,-1.43,-1.19
GstE1,DRSC07437,-0.865,-0.462,0.00238
GstE1,DRSC24708,1.1,0.0323,0.242
SmydA-9,DRSC17814,-1.47,0.254,-1.28
B52,DRSC14121,0.25,0.914,0.436
B52,DRSC25482,1.1,1.75,0.913
B52,DRSC40719,0.666,1.5,0.674
cerv,DRSC19681,0,0.735,0.173
cerv,DRSC25320,0.361,0.666,1.17
salto,DRSC06291,-4.2,-6.82,-1.72
salto,DRSC29983,-6.3,0.894,0.21
CG9826,DRSC04570,0.401,1.09,1.2
bys,DRSC18748,-0.386,0.904,-0.286
bys,DRSC29013,0.421,-0.818,-1.61
CG42258,DRSC19741,-0.625,-1.65,-0.549
CG42258,DRSC23161,0.706,-0.0407,0.038
CG42258,DRSC27710,0.679,-1.37,0.216
CG42258,DRSC28451,0.303,1.1,0.00208
CG34268 + CG34267,DRSC38856,0.548,0.148,0.407
gudu,DRSC02820,-0.508,-2.61,-1.34
CG12056,DRSC17796,-4.55,-0.439,0.435
Itpr,DRSC12354,-0.696,-0.554,-0.654
Itpr,DRSC28770,-1.07,-0.379,-0.686
app,DRSC09159,-0.358,0.0384,0.674
app,DRSC10246,0.896,0.236,0.897
app,DRSC10526,-0.302,0.247,0.455
app,DRSC25682,-1.03,-0.0661,0.479

Reprinted from the listing, 5 entries:
target gene,amplicon,"Wolbachia per cell robust z, rep 1","Wolbachia per cell robust z, rep 2","Wolbachia per cell robust z, rep 3"
CG33271,DRSC10583,-0.136,0.523,1.8
Fbp2,DRSC03327,0.607,0.83,-0.76
Fbp2,DRSC29036,0.831,0.602,-0.216
CG15715,DRSC10216,-0.299,-2.08,-0.415
CG15715,DRSC25332,-2.42 (active),-1.86,0.742
